# Residue numbers refer to the chain shown, from its start. The list shows a part of the results. Env chains of viruses from a treatment-interruption trial, translated from the printed DNA. IC50 / IC80 of two broadly neutralizing antibodies; lower = more sensitive virus; >50 µg/ml means not reached and <0.001 µg/ml is below the lowest dose. No active / inactive call.
# B1: HIV-1 Env, rebound clone, antibody arm (protein)
# chain: MKVKGTKRNYQHLWRWGIMLLGILMICSAADKFWVTVYYGVPVWKEASTTLFCASDAKAYDTEVHNVWATHACVPTDPNPQEIFLENVTEDFNMWENNMVEQMHEDVISLWDQSLKPCVKLTPLCVTLNCTDLKNVTESGNATATGGNNNRTVENEGEIKNCSFNITTSIRDKVTKEYALFNALDVVPIEDSNDNSSNGSDYSSYRMIHCNTSTITQACPKVSFEPIPIHYCTPAGFAILKCNNNTFSGKGPCNNVSTVQCTHGIRPVVSTQLLLNGSLAEEEIVIRSKNFSQNTDIIIVQLNESVIINCTRPNNNTRRGVHIGPGRAFYATGDIIGDIRRAYCNISRAEWNKTLGRVAEKLREQFPNKTIVFNQSSGGDPEIATHSFNCGGEFFYCYTSKLFNSTWNDTEGKVEEGDGNITFPCRIKQIINLWQEVGKAMYAPPISGIIKCESNITGLLLTRDGGNDNNTNEIFRPWGGNMKDNWRSELYKYKVVKIEPIGVAPTKAKRRVVQREKRAVGALGAMFLGFLGAAGSTMGAASLTLTVQARLLLSGIVQQQNNLLRAIEAQQHMLQLTVWGIKQLQARVLAVERYLRDQQLLGIWGCSGKLICTTAVPWNDSWSNNKTYDDIWENMTWMAWEKEIDNYTGIIYNLLEISQNQQEKNEQELLELDKWASLWNWFDITHWLWYIKIFIMIVGGLIGLRIVFTVLSIINRVRQGYSPLSFQTHLLTSRGPDRPEGIEEEGGEQDRGRSIRLVDGFLALFWDDLRSLCLFSYHRLRDLLLIAARIVELLGRRGWGILKYWWSLLQYWSQELNKSAISLLNATAIAVAEGTDRIIEVVQRAGRAILHIPVRIRQGLERALQ
# B2: HIV-1 Env, rebound clone, antibody arm (protein)
# chain: B1 chain with S200G, D201N, V578D, F682V
# B3: HIV-1 Env, rebound clone, antibody arm (protein)
# chain: B1 chain with S200G, R515G
# B4: HIV-1 Env, rebound clone, antibody arm (protein)
# chain: B1 chain with S200G, D201N, M526V, E840K
# B5: HIV-1 Env, rebound clone, antibody arm (protein)
# chain: MRVKGIRRNYQHWWRGDIWRWGMMLLGMLMICSATGSLWVTVYYGVPVWKEATTTLFCASDAKAYDTEAHNVWATHACVPTDPNPQEVPLVNVTENFNMWKNNMVEQMHEDIISLWDQSLKPCVKLTPLCVTLHCTEIGTNATNNSSHNPNPTTNSSTSPTPMGEIKNCSFNVTTNRRDKVQKTYAFFYNMDIKQIAEEDNTSYILTSCNTSVITQACPKVSFEPIPIHYCAPAGFAILKCNDTNFNGTGPCKNVTTVQCTHGIKPVVSTQLLLNGSLARGEVMIRSENISNNAKIIIVQLKEPVEINCTRPNNNTRKSITIGPGRAFFGTDIIGGIRQAHCNISREKWNYTLYQISEKLRSHFVNKTIVFNQSSGGDPEIVMHSFNCGGEFFYCDTSKLFNSTWHTNSTANNTGDNSTITLPCRIKQIVNMWQEVGKAMYAPPIKGPIRCSSKITGVLLTRDGGTNNTNTTETFRPAGGDMRDNWRSELYKYKVVQIEPLGIAPTQAKRRVVQRDKRAVGIGALFLGFLGTAGSTMGAASITLTVQARNLLSGIVQQQNNLLRAIEAQQHLLQLTVWGIKQLQARVLAVESYLKDQQLLGIWGCSGKLICTTAVPWNNSWSNKSLDYIWNNMTWMEWEREIDNYTEYIYDLLEASQNQQEKNEQELLALDKWASLWSWFSITQWLWYIKLFLIIVGGLIGLRIVFAVFSIVNRVRQGYSPLSLQTLLPAQRGPDRPEGIEEEGGEQDRGRSIRLVDGFLALFWDDLRSLCLFSYHRLRDLLLIVTRIVELLGRRGWETLKYCWNLLQYWGQELKKSAVSLFNFSAIAVAEGTDRVIEVVQRIWRAIIHIPRRIRQGLEGALL
# B6: HIV-1 Env, rebound clone, antibody arm (protein)
# chain: B5 chain with V79A
# Target: antibody 10-1074
# Assay: neutralization IC50; higher = virus less sensitive to the antibody
# Experimental: (§1)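 Pseudovirus bearing the Env chain mixed with antibody, from 50 µg/ml in fivefold dilutions, on TZM-bl reporter cells, in duplicate.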
row,Binder,neutralization IC50
1,B1,0.128 µg/mL
2,B2,0.226 µg/mL
3,B3,0.064 µg/mL
4,B4,0.186 µg/mL
5,B5,3.1 µg/mL
6,B6,7.08 µg/mL

# Target: antibody 3BNC117
# Assay: as above
# Experimental: as §1
row,Binder,neutralization IC50
1,B1,> 50 µg/mL
2,B2,> 50 µg/mL
3,B3,> 50 µg/mL
4,B4,> 50 µg/mL
5,B5,0.053 µg/mL
6,B6,0.053 µg/mL

# Target: antibody 10-1074
# Assay: neutralization IC80; higher = virus less sensitive to the antibody
# Experimental: as §1
row,Binder,neutralization IC80
1,B1,0.9 µg/mL
2,B2,1.21 µg/mL
3,B3,0.325 µg/mL
4,B4,1.24 µg/mL
5,B5,> 50 µg/mL
6,B6,> 50 µg/mL

# Target: antibody 3BNC117
# Assay: as above
# Experimental: as §1
row,Binder,neutralization IC80
1,B1,> 50 µg/mL
2,B2,> 50 µg/mL
3,B3,> 50 µg/mL
4,B4,> 50 µg/mL
5,B5,0.149 µg/mL
6,B6,0.197 µg/mL

# — the supplement of paper PMC12637763
